Measurements as given in PMC8315922, “In Vitro Identification and In Vivo Confirmation of Inhibitors for Sweet Potato Chlorotic Stunt Virus RNA Silencing Suppressor, a Viral RNase III” (Journal of Virology, 2021).
Where two headings read alike, the source gives them in different places.

Protein sequences, listed by entry. Tags and fused reporters are not part of them. Residues count along the entry.
UniProt Q8JJW8, 1-228: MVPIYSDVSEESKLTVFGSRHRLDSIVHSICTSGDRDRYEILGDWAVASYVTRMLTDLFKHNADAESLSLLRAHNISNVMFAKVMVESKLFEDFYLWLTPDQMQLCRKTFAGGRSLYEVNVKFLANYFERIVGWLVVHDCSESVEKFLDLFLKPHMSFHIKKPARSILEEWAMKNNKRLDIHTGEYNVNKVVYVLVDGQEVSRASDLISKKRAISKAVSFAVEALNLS

Key:
[1] = target: T1, CSR3 (RNase III of SPCSV) (Sweet potato chlorotic stunt virus, UniProt Q8JJW8); experiment: Kinetic-based FRET dose-response assay (IC50, DSS); type: biochemical; conditions: for DSS FIMM 2: repeat FIMM 2; for IC50: 1.25 nM to 50 μM, unit inferred, numbers match nM
CSR3 = CSR3 (Sweet potato chlorotic stunt virus, UniProt Q8JJW8); experiment: Binding affinity assay using MST; conditions: Table S4
[2] = target: T1, CSR3 (RNase III of SPCSV); experiment: Kinetic-based HTS (FRET, labeled 22-bp siRNA cleavage), one concentration; type: biochemical; conditions: compound 10 μM, 375 nM siRNA, 37°C
Excerpt: Based on the catalytic activity of CSR3 on 22-bp siRNA, our kinetic-based HTS assay was designed using distance-dependent FRET technology. Specifically, one strand of siRNA, as a substrate, was labeled with a fluorescent dye (6-carboxyfluorescein [FAM]) at the 5′ end and a quencher (black hole quencher 1 [BHQ1]) at the 3′ end. The initial reaction rate of CSR3 was quantified using the slope of raw fluorescence under an excitation/emission spectrum at 485/520 nm (Fig. 3A). According to our previous study ([24]) detailing CSR3 kinetic-based HTS development and optimization, this assay was conducted using 100 nM CSR3 enzyme and 375 nM siRNA substrate over 12 plate read cycles (∼17 min total) at 37°C. […] To evaluate the quality of the HTS assay, the Z-factor (Z′) parameter was calculated using the reaction rates of the positive and negative controls ([30]). […]
The HTS assay was designed based on FRET using a 22-bp siRNA (forward sequence, […]; reverse sequence, […]) with a 2-nucleotide (nt) 3′ overhang labeled with the fluorescent dye 6-carboxyfluorescein (FAM) and a black hole quencher (BHQ1) on the sense strand (Metabion, Munich, Germany). […] The plates were read with a PHERAstar FS reader (BMG Labtech, Ortenberg, Germany).
For HTS, the activity of CSR3 was calculated by measuring the change in fluorescence as a function of the reaction time using MARS Data Analysis software (BMG Labtech). […]

SPCSV = experiment: Virus accumulation (RT-qPCR of coat protein RNA) in coinfected sweetpotato plants grown in culture medium: SPCSV; type: in vivo, Sweet potato chlorotic stunt virus; conditions: 50 μM in culture medium, 28 days, relative to DMSO control
SPFMV = experiment: Virus accumulation (RT-qPCR of coat protein RNA) in coinfected sweetpotato plants grown in culture medium: SPFMV; type: in vivo, Sweet potato feathery mottle virus; conditions: 50 μM in culture medium, 28 days, relative to DMSO control
sweetpotato plants = experiment: Toxicity and plant growth (height) of coinfected sweetpotato plants grown in culture medium; conditions: 50 μM in culture medium
[3] = read-out: IC50 FIMM 2, repeat FIMM 2 (FIMM library compounds)

SMILES	DSS Comm 1 ([1]; drug sensitivity score, repeat Comm 1)	DSS FIMM 2 ([1]; drug sensitivity score)	IC50 ([1]; read-out: IC50 Comm 1, repeat Comm 1 (commercial compounds))	IC50 [1, 3]	Kd (CSR3; MST binding affinity to CSR3)	Binding (Yes/No) (CSR3; MST binding call)	Response Amplitude (CSR3; MST response amplitude)	PI values (percentage of inhibition) [2]	SPCSV_FC (fold change of viral accumulation) (SPCSV)	SPFMV_FC (fold change of viral accumulation) (SPFMV)	Toxicity (sweetpotato plants)
CCn1c(C)nc2cc(S(N)(=O)=O)ccc21	6	15.2	4610 nM	1740 nM	1.62 µM	Yes	23	99.1094%	1.751	1.416	
c1cnc2[nH]c(Nc3ccc(Nc4nc5cccnc5[nH]4)cc3)nc2c1		13.2		2420 nM							
COc1cc(C=C2C(=O)NC(=S)NC2=O)ccc1OCc1ccccc1[N+](=O)[O-] [FIMM101864]											no
